Source: patent publication US20020164348A1 (priority 2000, published 2002)

What was measured:
[1] = target: pJG-human rhinovirus 14 3D prey fusion (human rhinovirus 14) (UniProt P03303)
[2] = target: pJG-poliovirus 3D prey fusion (pJGPolio3D) (poliovirus Mahoney type 1) (UniProt P03300)
[3] = target: pJG-human rhinovirus 14 3D prey fusion, human rhinovirus 14, P03303 1720-2179
[4] = target: pJG-poliovirus 3D prey fusion (pJGPolio3D), poliovirus Mahoney type 1, P03300 1749-2209
[5] = target: T1, Peptide 1
T1 chain: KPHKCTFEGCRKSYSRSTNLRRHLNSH

[6] = target: T2, pJG-poliovirus 3D prey fusion (pJGPolio3D) (poliovirus Mahoney type 1, UniProt P03300 1749-2209)
T2 sequence: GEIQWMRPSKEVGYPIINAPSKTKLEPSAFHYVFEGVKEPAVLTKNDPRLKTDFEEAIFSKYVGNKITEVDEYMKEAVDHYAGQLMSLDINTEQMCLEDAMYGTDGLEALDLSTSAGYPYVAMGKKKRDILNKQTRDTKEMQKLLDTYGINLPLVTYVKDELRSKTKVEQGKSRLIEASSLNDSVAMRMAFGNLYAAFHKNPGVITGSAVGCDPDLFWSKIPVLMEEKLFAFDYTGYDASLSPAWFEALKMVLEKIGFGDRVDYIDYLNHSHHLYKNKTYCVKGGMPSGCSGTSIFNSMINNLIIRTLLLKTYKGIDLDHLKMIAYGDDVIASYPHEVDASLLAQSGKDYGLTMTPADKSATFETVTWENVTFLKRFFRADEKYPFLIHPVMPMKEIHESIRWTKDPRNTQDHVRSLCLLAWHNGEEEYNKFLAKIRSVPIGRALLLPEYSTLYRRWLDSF

**Q.** For “Lex202 vector control (bait vector without a polymerase) (from UniProt P0A7C2 1-202)”, which beta-galactosidase activity [1] is on record?
**A.** The beta-galactosidase activity was 35 Miller units.

**Q.** With “LexA-enterovirus 71 3D bait fusion (from UniProt P0A7C2 1-202)” as the molecule, how does the beta-galactosidase activity [1] read?
**A.** Its beta-galactosidase activity is 65 Miller units.

**Q.** And the beta-galactosidase activity [2]?
**A.** Its beta-galactosidase activity is 23 Miller units.

**Q.** What does the source list for LexA-human rhinovirus 14 3D bait fusion?
**A.** beta-galactosidase activity [3]: 632 miller units; beta-galactosidase activity [4]: 687 miller units

**Q.** Which results are given for “LexA-poliovirus 3D bait fusion (LexPolio3D)”?
**A.** beta-galactosidase activity [3]: 963 miller units; beta-galactosidase activity [4]: 591 miller units

B1: poliovirus RNA-dependent RNA polymerase, wild type (Mahoney type 1), purified from E. coli (protein)
chain: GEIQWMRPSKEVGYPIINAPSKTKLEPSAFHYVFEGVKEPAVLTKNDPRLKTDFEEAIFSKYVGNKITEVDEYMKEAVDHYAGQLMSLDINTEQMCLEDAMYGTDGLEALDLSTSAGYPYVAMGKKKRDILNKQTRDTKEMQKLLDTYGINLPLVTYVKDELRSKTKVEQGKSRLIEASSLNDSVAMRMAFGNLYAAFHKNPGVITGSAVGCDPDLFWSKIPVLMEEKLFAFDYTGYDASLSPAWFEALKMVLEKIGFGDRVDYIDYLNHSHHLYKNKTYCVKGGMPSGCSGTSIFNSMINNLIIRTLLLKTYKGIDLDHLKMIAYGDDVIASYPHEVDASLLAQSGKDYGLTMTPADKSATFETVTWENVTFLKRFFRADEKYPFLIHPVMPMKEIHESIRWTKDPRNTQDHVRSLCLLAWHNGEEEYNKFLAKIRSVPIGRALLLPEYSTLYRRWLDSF
**Q.** B1 was tested. Which “incorporation of labeled UTP on poly(A) with high concentrations of primer” value [5] did it give?
**A.** The value was “The dramatic stimulation observed in the presence of peptide”.

B2: Lex202 vector control (bait vector without a polymerase) (other)
chain: MKALTARQQEVFDLIRDHISQTGMPPTRAEIAQRLGFRSPNAAEEHLKALARKGVIEIVSGASRGIRLLQEEEEGLPLVGRVAAGEPLLAQQHIEGHYQVDPSLFKPNADFLLRVSGMSMKDIGIMDGDLLAVHKTQDVRNGQVVVARIDDEVTVKRLKKQGNKVELLPENSEFKPIVVDLRQQSFTIEGLAVGVIRNGDWL
**Q.** B2 was tested. Which beta-galactosidase activity [6] did it give?
**A.** The beta-galactosidase activity was 9 Miller units.
